Measured values taken from the supplement of paper PMC9931576.
Substitutions are numbered along the chain they refer to. Human monoclonal antibodies against the spike receptor-binding domain (heavy:light variable regions). IC50 against pseudoviruses bearing the spike of naturally observed variants; lower = stronger; >10 µg/ml means not reached at the top dose. No active / inactive call. The stated detection limit is 0.0005 µg/ml; values near or below 0.001 µg/ml lie at the floor of the assay.

B1: BD56-1814 (protein)
chain 1: QVQLQESGPGLVKPSETLSLTCTVSGGSISTYYWSWIRQPPGKGLEWIGYIHQSGGTYYNPSLKRRVTILADTSKNQFSLKLTSMTAADTAVYYCARVEYYAAGSPFDYWGQGTLVTVSS
chain 2: DIQMTQSPSSLSASVGDRVTITCQASQDISNYLNWYQQKPGKAPKLLIYDASHVETGVPSRFSGSGSGTEFTFTISSLQPEDVATYYCQQYDDLPMYTFGQGTRLEIK
B2: BD56-1820 (protein)
chain 1: EVQLVESGGGLVQPGGSLRLSCAVSGFTVSSNYMSWVRQAPGKGLEWVSVIYPGGSAFYADSVKGRFTISRHNSKNTLYLQLNSLRAEDTAVYYCARDFYHDSSGYPRDFWGQGTLVTVSS
chain 2: DIQMTQSPSALSASVGDRVTITCQASQDISNYLNWYQQKPGKAPKLLIYDASNLETGVPSRFSGSGSGTDFTFTISSLQPEDIATYYCHQYDNLPRTFGQGTKVEIK
B3: BD56-1821 (protein)
chain 1: QVQLVQSGAEVKRPGSSVKVSCKASGGPFSNNVISWVRQAPGQGLEYMGRIIPIPGITNYAQRFQGRGTFTADKSTRTAYLELNNLRSEDTAVYYCATSEVVDADTSYDALDIWGEGTMVTVSS
chain 2: QSALTQPRSVSGSPRQSVTISCTGTNSDVGRYNYVSWYQQHPGRAPKLLIYDVTKRPSGVPVRFSGSKSGNTASLTISGLQADDEADYYCSSYAGDSIFVIFGGGTKLTVL
B4: BD56-1822 (protein)
chain 1: QMQLVESGGGVVQPGRSLRLSCAASAFTFSTYAMHWVRQAPGKGLEWVAVISDDGSSKFYADSVKGRFTISRDNSKNMLYLQLNSLRAEDTAVYYCARDGPVGVTHYFDYWGQGTLVTVSS
chain 2: DIQLTQSPSSLSASVGDRVTITCRASQSISTYLHWYQQKPGQAPKLLIYAASSLQTGVPSRFSGRGSGTDFTLTISSLQPEDFATYYCQQSYSTLELTFGPGTRVDIK
B5: BD56-1823 (protein)
chain 1: EVQLVESGGGLVKPGGSLRLSCAASGFTFSRYTMNWVRQAPGKGLEWVSSIGSSSTHIYYPDSVKGRFTISRDNAKKSVYLQMNSLRVEDTAVYYCARDPGAFDWALGSLDYYGMNVWGQGTTVTVSS
chain 2: QSVLTQPPSVSGAPGQRVTISCTGSSSNIGADYAVHWYRQLPGTAPKLLIYGNTNRPSGVPDRFSGSKSGTSASLAITGLQAEDEADYYCQSFDNSLSGVVFGGGTKLTVL
B6: BD56-1831 (protein)
chain 1: QVQLVQSGAEVKKPGASVKVSCKASGYTFTDYSMNWVRQAPGQGLEWMGWINPNSGGTNSAQRFQGRLTMTRDTSITTAYMELTRLRSDDTAVYYCVRESCSGTSCFDSWGQGTLVTVSS
chain 2: SYVLTQPPSVSVAPGQTARITCAGNNIGSKSVHWYQQKSGQAPVLVVYDDSDRPSGIPERFSGSNSGNTATLTVSRVEAGDEADYYCQVWDGTDDHFYVFGTGTKVTVL
B7: BD56-1834 (protein)
chain 1: QVQLVQSGAEVKEPGSSVKVSCKASGGTFSSYTISWVRQAPGQGLECMGRIIPTLGIADYAQKFQGRVTITADKSTSTAYMELSSLRSEDTAVYYCARVRSIVTINSWWFDPWGQGTLVTVSS
chain 2: QSVLTQPPSVSGAPGQRVTISCTGSNSNIGAGYDVHWYQQLPGTAPKLLIYGNNNRPSGVPDRFSGSKSDTSASLAITGLQAEDEADYYCQSYDSSVSDSGVFGTGTKVTVL
B8: BD56-1838 (protein)
chain 1: QVQLVQSGAEVRRPGASVKVSCKVSGYSLSELSIHWVRQAPGEGLQWMGGFDPEDGETIYSQKFQGRVTMTEDTSTDTAYMDLSRLRSEDTAVYFCTTGGVYTTSFDFWGQGTLVTVSS
chain 2: DIVMTQSPDSLAVSLGERATINCKSSQSVLYSATKKNYLSWYQQRPGQPPKLLIYWASTRASGVPDRFSGSGSGTDFTLTISSLQAEDVAVYYCQQYSNTPPRYTFGQGTKLEIK
B9: BD56-1840 (protein)
chain 1: EVQLVESGGGLVQPGGSLRLSCAASGLTVSSNYMSWVRQAPGKGLEWLSLIYPGGTTYFADSVKGRFTISRHNSKNTLYLQMNSLRPEDTAVYYCARDVLGETGMDVWGQGTTVTVSS
chain 2: B2 chain 2 with A10S, Q27H, S30N, N31K, H89Q, K103N, V104L
B10: BD56-1844 (protein)
chain 1: QVQLAESGGGVVQPGRSLRLSCAASGFTFSVYPMHWVRQSPGKGPEWVAVISYDGSYKYYADSVKGRVTISRDNSKNMVYLQLNSLRIDDSAVYYCARVSPRGRDYYDESGSYYVGFAELDNWGQGTLVTVSS
chain 2: DIQMTQSPSSLSASVGDRVTVTCRASQSIASHLNWYQQKSGKAPKLLIYAASTLQSGVPSRFSGSESGTDFTLTISSLQPEDFATYYCQQSYSSPYTFGQGTNLEIK
B11: CV07-250 (protein)
chain 1: QVQLVQSEAEVKEPGASVEVSCKASGYNFTNFAISWVRQAPGQGLEWMGWISGYNGDTNSAQKFLGRVTMTTDTSTTTAYMELRSLRSDDTAVYYCAGSDNYGFPYNGMDVWGQGTTVTVSS
chain 2: QSALTQPPSASGSPGQSVTISCTGTSSDLGAYHFVTWYQHYPGKAPKVMIYGVRKRPSGVPDRFSGSKSGNTASLTVSGLQDEDEADYYCSSYAGNNDFVFGGGTKLTVL
B12: BD56-1854 (protein)
chain 1: EVLLVESGGGLIQPGGSLRLSCAASEIIVSNNYMTWVRQTPGKGLEWVSVLYSGGSTFYEDSVKGRFTISRDDSENKLYLQMNSLRVEDTAVYYCARGDAMDFYYGLDVWGQGTTVTVSS
chain 2: QSVLTQPPSVSGAPGQRVTISCTGSSSNIGAGSYVHWYQHVPGTAPKLLIYADINRPSGVPDRFSGSRSGTSASLAISGLQTEDEAVYYCQSYDSSLSGSLFGGGTKLTVL

molecular target: SARS-CoV-2 Omicron BA.1 spike pseudovirus; assay: pseudovirus neutralization IC50; higher = weaker neutralization
Experimental: (§1)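 Single-round VSV luciferase pseudovirus mixed with antibody dilutions for 1 h and put on Huh-7 cells for about a day; IC50 from the dose curve.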

| Binder | pseudovirus neutralization IC50 |
| --- | --- |
| B1 | > 10 µg/mL |
| B2 | 0.0077 µg/mL |
| B3 | 0.0915 µg/mL |
| B4 | > 10 µg/mL |
| B5 | 0.291 µg/mL |
| B6 | > 10 µg/mL |
| B7 | 0.0687 µg/mL |
| B8 | 0.000727 µg/mL |
| B9 | 0.00651 µg/mL |
| B10 | > 10 µg/mL |
| B11 | > 10 µg/mL |
| B12 | 0.00108 µg/mL |

molecular target: SARS-CoV-2 Omicron BA.2 spike pseudovirus; assay: as above
Experimental: as §1

| Binder | pseudovirus neutralization IC50 |
| --- | --- |
| B1 | > 10000 ng/mL |
| B2 | 4.4 ng/mL |
| B3 | 0.416 ng/mL |
| B4 | > 10000 ng/mL |
| B5 | 4860 ng/mL |
| B6 | > 10000 ng/mL |
| B7 | 60.8 ng/mL |
| B8 | 8.6 ng/mL |
| B9 | 7.69 ng/mL |
| B10 | > 10000 ng/mL |
| B11 | > 10000 ng/mL |
| B12 | 2.96 ng/mL |

molecular target: SARS-CoV-2 Omicron BA.2.75 spike pseudovirus; assay: as above
Experimental: as §1

| Binder | pseudovirus neutralization IC50 |
| --- | --- |
| B1 | > 10 µg/mL |
| B2 | 0.0487 µg/mL |
| B3 | 0.0653 µg/mL |
| B4 | > 10 µg/mL |
| B5 | > 10 µg/mL |
| B6 | > 10 µg/mL |
| B7 | 0.0642 µg/mL |
| B8 | 0.000502 µg/mL |
| B9 | > 10 µg/mL |
| B10 | > 10 µg/mL |
| B11 | > 10 µg/mL |
| B12 | 0.0023 µg/mL |

molecular target: SARS-CoV-2 Omicron BA.5 spike pseudovirus; assay: as above
Experimental: as §1

| Binder | pseudovirus neutralization IC50 |
| --- | --- |
| B1 | > 10 µg/mL |
| B2 | 0.0174 µg/mL |
| B3 | 0.0392 µg/mL |
| B4 | > 10 µg/mL |
| B5 | 6.05 µg/mL |
| B6 | > 10 µg/mL |
| B7 | > 10 µg/mL |
| B8 | 0.338 µg/mL |
| B9 | 0.0117 µg/mL |
| B10 | > 10 µg/mL |
| B11 | > 10 µg/mL |
| B12 | 0.00133 µg/mL |

molecular target: SARS-CoV-2 Omicron BQ.1.1 spike pseudovirus; assay: as above
Experimental: as §1

| Binder | pseudovirus neutralization IC50 |
| --- | --- |
| B1 | > 10 µg/mL |
| B2 | > 10 µg/mL |
| B3 | > 10 µg/mL |
| B4 | > 10 µg/mL |
| B5 | > 10 µg/mL |
| B6 | > 10 µg/mL |
| B7 | > 10 µg/mL |
| B8 | 0.439 µg/mL |
| B9 | > 10 µg/mL |
| B10 | > 10 µg/mL |
| B11 | > 10 µg/mL |
| B12 | 0.00621 µg/mL |

molecular target: SARS-CoV-2 Omicron XBB spike pseudovirus; assay: as above
Experimental: as §1

| Binder | pseudovirus neutralization IC50 |
| --- | --- |
| B1 | > 10 µg/mL |
| B2 | > 10 µg/mL |
| B3 | > 10 µg/mL |
| B4 | > 10 µg/mL |
| B5 | > 10 µg/mL |
| B6 | > 10 µg/mL |
| B7 | > 10 µg/mL |
| B8 | > 10 µg/mL |
| B9 | > 10 µg/mL |
| B10 | > 10 µg/mL |
| B11 | > 10 µg/mL |
| B12 | 0.00891 µg/mL |

molecular target: SARS-CoV-2 early D614G spike pseudovirus; assay: as above
Experimental: as §1

| Binder | pseudovirus neutralization IC50 |
| --- | --- |
| B1 | 2.83 µg/mL |
| B2 | 0.022 µg/mL |
| B3 | 0.000403 µg/mL |
| B4 | > 10 µg/mL |
| B5 | 0.181 µg/mL |
| B6 | > 10 µg/mL |
| B7 | 0.0549 µg/mL |
| B8 | 0.000648 µg/mL |
| B9 | 0.0374 µg/mL |
| B10 | 0.819 µg/mL |
| B11 | 0.00169 µg/mL |
| B12 | 0.00375 µg/mL |
